Measured values from several laboratories, pooled; numbers as filed in NIAID ChemDB.

Shared fields: tests in culture; agent: HIV-1

Lines come from different laboratories, so protocols vary. a–b is a range or a potency band. An empty or dashed field is not shown. ECn is the concentration giving n% inhibition of infection, replication or growth.

SMILES,strain or isolate,method,mutations,cell line,measure,value
O=C(O)c1ccccc1CCCC1(O)CCN(C[C@H]2CN(CC3CCCCC3)C[C@@H]2c2ccccc2)CC1,BaL,β-galactosidase,-,HeLa,EC90,>1 µM
O=C1OCc2c1cc1cc(O)c(O)cc1c2-c1ccc(O)c(O)c1,CONB/pNL43E-Luc+,luciferase,-,U87 (CD4+ CCR5+) + U87,EC90,17.6 µg/mL
C=C(COCP(=O)(O)O)C(C)n1ccc(=O)[nH]c1=O,-,XTT,-,CEM,EC50,26.9 µM
Cc1cc(C)cc(S(=O)(=O)c2c(C(=O)NC(C)C(=O)NC(C)c3ccncc3)[nH]c3ccc(Cl)cc23)c1,NL4-3,cytopathic effect / MTT / absorbance,K103N/Y181C,MT-4,EC50,>0.364 µM
CCc1c(NCc2cccc3ccccc23)cc(C)oc1=O,IIIB,MTT,-,CEM,EC50,>10 µM
CC1=NN(c2nc(N)nc(NS(=O)(=O)c3cc(C)c(Cl)cc3S)n2)C(C)(C)C1,RF,cytopathic effect / XTT,-,CEM,EC50,116 µM
Cc1cn(-c2ccc([N+](=O)[O-])cc2)c2ccccc12,IIIB,syncytia,-,C8166,EC50,19.22 µg/mL
Nc1nc2c(ncn2[C@H]2C[C@]3(CO2)CC(F)(F)P(=O)(O)O3)c(=O)[nH]1,-,MTT,-,MT-4,EC50,94 µM
COc1ccc2c(c1)C1=NCCCN1C(=N)S2,IIIB,MTT,-,MT-4,EC50,5.3 µM
CCCc1cc(=O)oc2c3c(c4c(c12)OC(C)(C)C=C4)O[C@H](C)C(C)(C)[C@@H]3O,IIIB,cytopathic effect / MTT,-,CEM + CEM-SS,EC50,>20.3 µM
Cc1cn([C@H]2C[C@]3(CO2)CC(F)(F)P(=O)(O)O3)c(=O)[nH]c1=O,-,MTT,-,MT-4,EC50,>100 µM
O=c1[nH]cnc2c1ncn2C1CC[C@@H](CO)O1,IIIB,MTT,-,MT-4,EC50,5.37 µM
C=C(COCP(=O)(O)O)C(C)n1cnc2c(N)ncnc21,-,XTT,-,CEM,EC50,80 µM
Nc1ncnc2c1ncn2[C@H]1OC[C@@](F)(CCP(=O)(O)O)[C@H]1F,LAI,MTT,-,PBMC,EC90,80 µM
Cc1cc(S(=O)(=O)Nc2nc3ccccc3[nH]2)c(S)cc1Cl,RF,cytopathic effect / XTT,-,CEM,EC50,>58.2 µM
N#Cc1ccccc1-n1ccc2ccccc21,IIIB,syncytia,-,C8166,EC50,82.28 µg/mL
CCOCn1c([Se]c2cccc(C)c2)c(CC)c(=O)[nH]c1=O,RF,cytopathic effect / XTT,-,CEM + CEM-SS,EC50,0.027 µM
CN(C)CCCNC(=O)c1cc(NC(=O)c2cc(NC(=O)c3cc(NC(=O)c4ccc(C(=O)Nc5cc(C(=O)Nc6cc(C(=O)Nc7cc(C(=O)NCCCN(C)C)n(C)c7)n(C)c6)n(C)c5)nc4)cn3C)cn2C)cn1C,-,cytopathic effect / XTT,-,CEM,EC50,0.3 µM
CN1CC(O)C(C)(C)Cn2c(c3c(c(O)c2=O)C(=O)N(Cc2ccc(F)c(Cl)c2)CC3)C1=O,-,p24,-,MT-4,EC95,0.031 µM
Cc1cc(S(=O)(=O)Cc2cccc3ccccc23)cc(=O)o1,IIIB,MTT,-,CEM,EC50,>10 µM
O=c1[nH]cnc2c1ncn2[C@H]1CC[C@@H](CO)O1,HXB2-MT 65+68 (RT K65R S68G),p24 / ELISA,RT-K65R S68G,MT-2,EC50,2.4 µM
Cc1cc(S(=O)(=O)Nc2nc(N)n(-c3ccccc3)n2)c(S)cc1Cl,RF,cytopathic effect / XTT,-,CEM,EC50,126.6 µM
O=S1(=O)CCCCS1,RF,p24,-,PBLC,EC50,>100 µM
Cc1cc(NCc2cccc3ccccc23)cc(=O)o1,IIIB,MTT,-,CEM,EC50,>10 µM
CC(C)(C)NC(=O)[C@@H]1C[C@@H]2CCCC[C@@H]2CN1C[C@@H](O)[C@H](Cc1ccccc1)NC(=O)[C@H](CC(N)=O)NC(=O)c1ccc2ccccc2n1,GB8(PR-WT),p24,-,CEM,EC50,0.008 µM
CC(C)(C)OC(=O)NCCCCCCNC(=O)/C=C/c1cn([C@H]2C=C[C@@H](CO)O2)c(=O)[nH]c1=O,IIIB,RT activity,-,MT-4,EC50,>100 µM
Cc1cc(C)cc(S(=O)(=O)c2c(C(=O)NCC(=O)NC(C)c3ccncc3)[nH]c3ccc(Cl)cc23)c1,NL4-3,cytopathic effect / MTT / absorbance,Y181C,MT-4,EC50,0.0112 µM
CC(C)c1c([Se]c2ccccc2)n(COCCO)c(=O)[nH]c1=O,RF,cytopathic effect / XTT,-,CEM + CEM-SS,EC50,0.11 µM
Cc1cn([C@H]2C[C@H](N=[N+]=[N-])[C@@H](CO)O2)c(=O)[nH]c1=O,Recombinant,p24,RT-Q151M,PBMC,EC50,0.03 µM
CCOP(=O)(OCC)C(F)(F)C[C@@]1(O)CO[C@@H](n2ccc(=O)[nH]c2=O)C1,-,MTT,-,MT-4,EC50,>100 µM
CCOCn1c([Se]c2ccccc2)c(C(C)C)c(=O)[nH]c1=S,RF,cytopathic effect / XTT,-,CEM + CEM-SS,EC50,0.034 µM
C=Cc1ccc2c(c1)SC(=N)N1CCCN=C21,IIIB,MTT,-,MT-4,EC50,4.6 µM
CCCc1cc(=O)oc2c3c(c4c(c12)OC(C)(C)C=C4)O[C@@H](C)C(C)=C3,IIIB,cytopathic effect / MTT,-,CEM + CEM-SS,EC50,>24.7 µM
O[C@@H]1CSSC[C@@H]1O,RF,cytopathic effect / XTT,-,CEM + CEM-SS,EC50,>20.1 µM
Cc1cn([C@H]2C[C@H](N=[N+]=[N-])[C@@H](CO)O2)c(=O)[nH]c1=O,LTLV-IIIB,p24,-,PBMC,EC50,0.001 µM
N=C1Sc2cc(-c3ccc4c(c3)OCO4)ccc2C2=NCCCN12,IIIB,MTT,-,MT-4,EC50,0.89 µM
CC(=O)OCC1(COC(C)=O)CSSC1,RF,cytopathic effect / XTT,-,CEM + CEM-SS,EC50,>200 µM
O=c1[nH]cnc2c1ncn2[C@H]1CC[C@@H](CO)O1,4737,ELISA,-,PBMC,EC50,0.5 µM
Cc1cc(S(=O)(=O)Nc2nc(Nc3ccccc3)nn2C)c(S)cc1Cl,RF,cytopathic effect / XTT,-,CEM,EC50,>149 µM
CCc1c([Se]c2cccc(C)c2)n(COCCO)c(=O)[nH]c1=O,RF,cytopathic effect / XTT,-,CEM + CEM-SS,EC50,0.12 µM
O=C(O)C(=O)/C=C(\O)c1cn(Cc2ccc(F)cc2)c2ccc(Br)cc12,-,luciferase,-,TZM-bl,EC50,0.13 µM
CC(n1cnc2c(N)ncnc21)C1(COCP(=O)(O)O)CC1,-,XTT,-,CEM,EC50,10.6 µM
O=c1ccn([C@H]2C[C@]3(CO2)CC(F)(F)P(=O)(O)O3)c(=O)[nH]1,-,MTT,-,MT-4,EC50,>100 µM
Nc1cc(Cl)nc(SCc2ccccc2)n1,IIIB,syncytia,-,MT-2,EC50,0.4–4 µM
OC1(CCCc2ccccc2)CCN(C[C@H]2CN(CC3CCCCC3)C[C@@H]2c2ccccc2)CC1,BaL,β-galactosidase,-,HeLa,EC50,<0.2 µM
Cc1cc(S(=O)(=O)Nc2nc(N)nc3nc4ccccc4n23)c(S)cc1Cl,RF,cytopathic effect / XTT,-,CEM,EC50,151.5 µM
O=C(O)Cc1cccc(CCCC2(O)CCN(C[C@H]3CN(CC4CCCCC4)C[C@@H]3c3ccccc3)CC2)c1,BaL,β-galactosidase,-,HeLa,EC50,<0.3 µM
CCCc1cc(=O)oc2c3c(c4c(c12)OC(C)(C)C=C4)OC(C)(C)[C@H](C)C3=O,IIIB,cytopathic effect / MTT,-,CEM + CEM-SS,EC50,>21 µM
CC(=O)O[C@H]1CSS(=O)(=O)C[C@H]1OC(C)=O,RF,cytopathic effect / XTT,-,CEM + CEM-SS,EC50,>9.2 µM
Cc1cccc([Se]c2c(C(C)C)c(=O)[nH]c(=O)n2COCCO)c1,RF,cytopathic effect / XTT,-,CEM + CEM-SS,EC50,0.07 µM
O=[N+]([O-])c1ccc(-n2ccc3cc([N+](=O)[O-])ccc32)cc1,IIIB,syncytia,-,C8166,EC50,2.93 µg/mL
COc1cc2c(cc1OC)[C@H](c1cc(OC)c(OC)c(OC)c1)[C@@H](C)[C@@H](C)C2,NL4-3,luminescence,-,MT-2,EC50,0.771 µM
O=c1[nH]cnc2c1ncn2[C@H]1CC[C@@H](CO)O1,-,XTT,-,-,EC50,0.76 µM
Cc1ccc(-c2ccc3c(c2)C=C(C(=O)Nc2ccc(C[N+](C)(C)C4CCOCC4)cc2)CCC3)cc1,MZ,p24,-,PBMC,EC50,>20 µM
CCOP(=O)(OCC)C(F)(F)C[C@@]1(O)CO[C@@H](n2cnc3c(N)nc(F)nc32)C1,-,MTT,-,MT-4,EC50,87 µM
Cc1cc(SCc2cccc3ccccc23)cc(=O)o1,IIIB,MTT,-,CEM,EC50,>10 µM
Nc1ccn([C@H]2CC[C@@H](CO)O2)c(=O)n1,A-17 (TIBO-RS),cytopathic effect / MTT,-,MT-2,EC50,~0.07 µM
Nc1nc2c(ncn2[C@H]2CC[C@@H](CO)O2)c(=O)[nH]1,IIIB,cytopathic effect / trypan blue,-,MT-4,EC50,6.9 µM
CC(C)(C)OC(=O)N[C@@H](Cc1ccccc1)[C@H](O)CNC[C@@H](O)[C@H](Cc1ccc(OCC(O)c2cccnc2)cc1)NC(=O)OC(C)(C)C,RF,cytopathic effect / XTT,-,CEM + CEM-SS,EC50,0.2 µM
COc1ccc(-c2c3c(cc4cc(OC)c(OC)cc24)CN(C(C)C)C3)cc1OC,CONB/pNL43E-Luc+,luciferase,-,U87 (CD4+ CCR5+) + U87,EC90,15.43 µg/mL
Nc1ncnc2c1ncn2[C@@H]1O[C@H](CO)[C@H]2CC[C@]21Cl,NL4-3,MTT,-,MT-4,EC50,22.92 µg/mL
CCCCn1cnnc1NS(=O)(=O)c1cc(C)c(Cl)cc1SCC(=O)O,RF,cytopathic effect / XTT,-,CEM,EC50,>200 µM
Cc1cc(S(=O)(=O)CCc2cccc3ccccc23)cc(=O)o1,IIIB,MTT,-,CEM,EC50,>2 µM
O=S1C[C@@H](O)[C@H](O)CS1,RF,cytopathic effect / XTT,-,CEM + CEM-SS,EC50,>59.3 µM
O=C(/C=C/c1cn([C@H]2C=C[C@@H](CO)O2)c(=O)[nH]c1=O)NCCCCCCNC(=O)C(F)(F)F,IIIB,RT activity,-,MT-4,EC50,>100 µM
CCOP(=O)(OCC)C(F)(F)C[C@@]1(O)CO[C@@H](n2cc(C)c(=O)[nH]c2=O)C1,-,MTT,-,MT-4,EC50,>100 µM
N=C1Sc2cc(C(F)(F)F)ccc2C2=NCCCN12,IIIB,MTT,-,MT-4,EC50,6.2 µM
Cc1cc(C)cc([Se]c2c(C(C)C)c(=O)[nH]c(=O)n2COCc2ccccc2)c1,RF,cytopathic effect / XTT,-,CEM + CEM-SS,EC50,0.031 µM
Nc1nc(=O)n([C@@H]2CS[C@H](CO)O2)cc1F,LAI (RT-Q151M) Recombinant,cytopathic effect / XTT,-,MT-2,EC50,1.4 µM
Cc1cc(S(=O)(=O)CCc2cccc3ccccc23)c(Br)c(=O)o1,IIIB,MTT,-,CEM,EC50,>10 µM
Cc1cc(S(=O)(=O)Nc2nc(N)nc(N(C)C)n2)c(S)cc1Cl,RF,cytopathic effect / XTT,-,CEM,EC50,>200 µM
Cc1cc(NCc2ccccc2)cc(=O)o1,IIIB,MTT,-,CEM,EC50,>250 µM
CN(C)CCCNC(=O)c1cc(NC(=O)c2cc(NC(=O)c3cc(NC(=O)c4ccccc4C(=O)O)cn3C)cn2C)cn1C,-,cytopathic effect / XTT,-,CEM,EC50,>200 µM
Nc1ccc(S(N)(=O)=O)cc1SSc1cc(S(N)(=O)=O)ccc1N,RF,cytopathic effect / XTT,-,CEM,EC50,26.7 µM
O=C(O)CCc1ccc(CCCC2(O)CCN(C[C@H]3CN(CC4CCCCC4)C[C@@H]3c3ccccc3)CC2)cc1,BaL,β-galactosidase,-,HeLa,EC50,<0.04 µM
Cc1cn(C(C)C2(COCP(=O)(O)O)CC2)c(=O)[nH]c1=O,-,XTT,-,CEM,EC50,86.5 µM
CC(C)=CCN1Cc2cc(Cl)cc3[nH]c(=S)n(c23)C[C@@H]1C,-,-,RT-L74V K103N,MT-4,EC50,<3 µM
C=C(COCP(=O)(O)O)C(C)n1cnc2c(=O)[nH]c(N)nc21,-,XTT,-,CEM,EC50,32.4 µM
Cc1cccc([Se]c2c(C(C)C)c(=O)[nH]c(=O)n2COCc2ccccc2)c1,RF,cytopathic effect / XTT,-,CEM + CEM-SS,EC50,0.011 µM
Cc1cn([C@H]2C[C@H](N=[N+]=[N-])[C@@H](CO)O2)c(=O)[nH]c1=O,HxB2-MT 65 (RT-K65R,p24 / ELISA,RT-K65R,MT-2,EC50,0.003 µM
Cc1cn([C@H]2C[C@H](N=[N+]=[N-])[C@@H](CO)O2)c(=O)[nH]c1=O,G190-6 Clinical isolate ZDV-resistant,syncytia,RT-M41L D67N K70R T215Y K219Q,HT4 + HeLa,EC50,10 µM
Nc1nc2c(ncn2[C@H]2OC[C@@](F)(C=CP(=O)(O)O)[C@H]2F)c(=O)[nH]1,LAI,MTT,-,PBMC,EC50,68 µM

The first 4 rows once more:

SMILES | strain or isolate | method | mutations | cell line | measure | value
O=C(O)c1ccccc1CCCC1(O)CCN(C[C@H]2CN(CC3CCCCC3)C[C@@H]2c2ccccc2)CC1 | BaL | β-galactosidase | - | HeLa | EC90 | >1 µM
O=C1OCc2c1cc1cc(O)c(O)cc1c2-c1ccc(O)c(O)c1 | CONB/pNL43E-Luc+ | luciferase | - | U87 (CD4+ CCR5+) + U87 | EC90 | 17.6 µg/mL
C=C(COCP(=O)(O)O)C(C)n1ccc(=O)[nH]c1=O | - | XTT | - | CEM | EC50 | 26.9 µM
Cc1cc(C)cc(S(=O)(=O)c2c(C(=O)NC(C)C(=O)NC(C)c3ccncc3)[nH]c3ccc(Cl)cc23)c1 | NL4-3 | cytopathic effect / MTT / absorbance | K103N/Y181C | MT-4 | EC50 | >0.364 µM